Measurements taken from patent US20130022598A1.

Columns and labels:
[1] = target: EGFRvIII expressed on cells (NR6M transfectant; glioblastoma cells) (UniProt P00533); test: cell-based or functional assay
[2] = target: EGFRwt expressed on cells (NR6W transfectant; A431 cells) (UniProt P00533); test: cell-based or functional assay
[3] = target: recombinant EGFRvIII extracellular domain protein (UniProt P00533); test: SPR (Biacore 3000), EGFRvIII ECD immobilised on a CM5 chip, IT at 25 to 200 nM

Work on “MR1-1-(scdsFv)-PE38 KDEL immunotoxin (from UniProt P11439 278-638) (scFv)” yielded an IC50 ng/ml, cytotoxicity (50% inhibition of protein synthesis) on D256MG cells [1] of 1.9 ng/mL, an IC50 ng/ml, cytotoxicity (50% inhibition of protein synthesis) on D270MG cells [1] of 0.58 ng/mL and an IC50 ng/ml, cytotoxicity (50% inhibition of protein synthesis) on A431 cells [2] of 8 ng/mL.

Substance “D2C7-PE38 immunotoxin (parental) (from UniProt P11439 278-638) (scFv)” has an IC50 ng/ml, cytotoxicity (50% inhibition of protein synthesis) on A431 cells [2] of 1 ng/mL.

In the case of “D2C7-(scdsFv)-PE38 KDEL immunotoxin (from UniProt P11439 278-638) (scFv)”, the IC50 ng/ml, cytotoxicity (50% inhibition of protein synthesis) on A431 cells [2] is reported as 0.17 ng/mL, the Ka [3] is reported as 7.8e+08 M⁻¹ and the Kd [3] is reported as 1.3 nM.
